Human monoclonal antibodies against the spike receptor-binding domain (heavy:light variable regions). IC50 against pseudoviruses bearing the spike of naturally observed variants; lower = stronger; >10 µg/ml means not reached at the top dose. No active / inactive call. The stated detection limit is 0.0005 µg/ml; values near or below 0.001 µg/ml lie at the floor of the assay.
Assays:
Test in all cases: pseudovirus neutralization IC50; higher = weaker neutralization
[1] = target: SARS-CoV-2 Omicron BA.1 spike pseudovirus
Experimental: (§1)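 Single-round VSV luciferase pseudovirus mixed with antibody dilutions for 1 h and put on Huh-7 cells for about a day; IC50 from the dose curve.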

[2] = target: SARS-CoV-2 Omicron BA.2 spike pseudovirus
Experimental: as §1

[3] = target: SARS-CoV-2 Omicron BA.2.75 spike pseudovirus
Experimental: as §1

[4] = target: SARS-CoV-2 Omicron BA.5 spike pseudovirus
Experimental: as §1

[5] = target: SARS-CoV-2 Omicron BQ.1.1 spike pseudovirus
Experimental: as §1

[6] = target: SARS-CoV-2 Omicron XBB spike pseudovirus
Experimental: as §1

[7] = target: SARS-CoV-2 early D614G spike pseudovirus
Experimental: as §1

Binder	pseudovirus neutralization IC50 [1] [mg/L]	pseudovirus neutralization IC50 [2] [mg/L]	pseudovirus neutralization IC50 [3] [mg/L]	pseudovirus neutralization IC50 [4] [mg/L]	pseudovirus neutralization IC50 [5] [mg/L]	pseudovirus neutralization IC50 [6] [mg/L]	pseudovirus neutralization IC50 [7] [mg/L]
BD55-5454 (protein) chain 1: EVQLVESGGGLVQPGGSLRLSCAASGFTFSSYAMHWVRQAPGKGLEYVSSITNNGDGTFYAPSVKGRFIISRDNAKSTVYLQMGGLRPEDMAVYYCARESRAVALWGLDYWGQGTLVAVYS chain 2: DIQMTQSPSSLSASVGDRVTISCRASQTISRHLNWYQHKPGKAPKLLIYGASTLQGGVPSRFSASGSGTDFTLTISSLQPEDFATYYCQQSYITPVYTFGQGTKVEIK	> 10	> 10	> 10	> 10	> 10	> 10	> 10
BD55-5459 (protein) chain 1: QITLKESGPTLVKPTQTLTLTCTFSGFSLSTTEVGVGWIRQPPGKALEWLALIYWDDNKRYSPSLESRVTITKDTSKNQVVLTMTNMDPVDTATYYCAHSHYDFLAGYVGFDFWGQGALVTVSS chain 2: DIVMTQTPFSSPVTLGQPATISCRSSQSLVHSDGNTYLNWLQQRPGQPPRLLIYQISKRFSGVPDRFSGSGAGTDFTLKISRVEAEDVGIYYCMQATQFPHEMYTFGQGTKLVIK	> 10	> 10	> 10	> 10	> 10	> 10	0.061
BD55-5462 (protein) chain 1: EVQLVESGGGLVQPGRSLRLSCTVSGFIFGDHAISWVRQAPGKGLEWVGFIRSKAFGGTTEYAASVRGRFTISRDDSKSIAYLQMISLKTADTGVYYCARDLTYGVYQYDSTVYFPGLDAWGQGALVTVSA chain 2: DIVMTQTPLSLSVTPGQPASISCKSSQSLLHGDGKTYLYWYLQKAGQSPQLLIYEVSKRFSGVPDRFSGSGSGTDFTLKISRVEAEDVGVYYCMQSKQLRTFGQGTKVEIK	> 10	0.0452	0.382	0.531	0.51	> 10	0.00495
BD55-5476 (protein) chain 1: EVQLVESGGGLVQPGGSLRLSCVASGFAFRSYAMHWVRQAPGKRLEYVSSISSNGGLTFYADSVKGRFTISRDDSKSTLYLQMGSLTVEDMAVYYCAREGRGYYLYFDYWGQGTLVTVSS chain 2: DIQMTQSPSSLSASVGDRVTITCRASQSISSYLNWYQQKPGEAPKLLIHLASTLQSGVPSRFSGSGSGTEFTLTISTLQPEDFATYYCQQSYTTPRYTFGQGTKLEIK	> 10	> 10	> 10	> 10	> 10	> 10	> 10
BD55-5406 (protein) chain 1: QITLKESGPTLVKPTQTLTLTCTFSGFSLSTGAVGVGWIRQPPGKALEWLALIYWDGDERYSPSLKNRLTITKDTSKNQVVLTMTNMDPVDTATYFCARSGSAYYDILTGYFRPGISDYWGQGTLVTVSS chain 2: IVMTQTPLSLPVTPGEPASISCRSSQSLLDSDDGNTYLDWYLQKPGQSPQLLIYTLSYRASGVPDRFSGSGSGTDFTLKISRVEAEDVGVYYCMQRIEFPGTFGQGTKLEIK	> 10	> 10	> 10	> 10	> 10	> 10	> 10
BD55-1051 (protein) chain 1: QVQLVQSGAEVKKPGSSVKVSCKASGDTFSNYAFGWVRQAPGQGLEWMGRIIPRFDVASPTRKFQGRLTISADKSTTTVYMELSSLKSDDTAIYYCVRDVVGATSVDFWGQGTQVTVSS chain 2: DVVMTQSPLSLPVTLGQTASISCRSSESLVYSDGNTYLNWFQQRPGQSPRRLIYKVSNRDSGVPDRFSGSGSGTDFTLKISRVEADDVGIYFCMQGTHWPRTFGQGTKVEIK	> 10	> 10	> 10	> 10	> 10	> 10	0.00139
BD55-5442 (protein) chain 1: QVQLVESGGGVVQPGRSLRLSCAASGFTFSDYDMHWVRQSPGKGLEWVAVISSDGSIKFYTDSVKGRFTISRDNSKNTLFLQMNSLTAEDTAVFYCVREGDNRAYYYGAGAFDIWGPGTMVTVSS chain 2: DIQMTQSPSSLSASVGDRVTITCRASQTISNYLNWYQQKPGKAPKLLIYAASSLQSGVPSRFSGSGSGTDFTLTISTLQPEDFATYFCQQSYSTPEVTFGQGTRLEIK	> 10	> 10	> 10	> 10	> 10	> 10	1.64
BD55-5399 (protein) chain 1: QVQLVQSGSELKKPGASMKVSCKASGYTFTTYALKWVRQAPGQGLEWMGWINTNTGNPTYAQGFTGRFVFSLDTSVSTAYLQISSLRAEDTAVYYCARVFCDYDTCYDVDYWGQGTLVTVSS chain 2: QSVLTQPPSASGTPGQTVTISCSGSTSNIGSNFVYWYQQLPGTAPKVLIYRNTHRPSGVPDRFSGSKSGTSASLAISGLRSEDEADYYCAVWDDSLSGRVFGGGTKLTVL	> 10	> 10	> 10	> 10	> 10	> 10	0.0018
BD55-1064 (protein) chain 1: QVQLVESGGGVAQPGGSLRLSCAASGFSFSTFAMHWVRQAPGTGLEWVGVIWSDGNVKHYADSVKGRFTISRDNSKNTVDLQMNNLRAEDTAVYYCARDYSATYWVTWFDPWGQGTLVTVSS chain 2: DIQLTQSPSSLSASVGDRITITCRAHQSVNKYLNWYQQKPGTAPKLLIYASSTLQSGVPSRFSGSGSGTDYTLTISSLQPEDFATYYCQQSYSTPPWTFGQGTRVEIK	> 10	> 10	> 10	> 10	> 10	> 10	0.455
BD55-5415 (protein) chain 1: EVQLVESGGGLVKPGGSLRLSCAASAFTFSTDSMSWVRQAPGKGLAWVSSISGTSSYINYADSVKGRFTISRDNAKNSLFLQMNSLRVEDTAVYYCARDPGYDFSSGYYTAIDSWGQGTLVIVSS chain 2: QPVLTQSSSASASLGSSVKLTCTLSGGHTSSIIAWHQQQPGKAPRYLMMLGGSATYNKGSGLPDRFSGSTSGAARHLTISSLQSEDEAIYYCETWDNNSRIFGGGTKLTVL	> 10	> 10	> 10	> 10	> 10	> 10	0.0327
BD55-5419 (protein) chain 1: QVQLVESGGGVVQPGTSLRLSCAVSGFDFSNYGMHWVRQAPGKGLEWVAVTWFDGDNEYYAKSVRGRFTISRDKSRNTLYLQMNSLRAEDTAIYYCARDNCSGGTCIPAPVDYWGQGTLVTVSS chain 2: SYELTQPLSVSVALGQTATITCGGDNIGSYNVHWYQQKSGQAPVLVIFRDFSRPSGIPERFSGSNSGNTATLTISRAQAGDEADYYCQVWDSSTEGYVFGTGTKVTVL	> 10	> 10	> 10	> 10	> 10	> 10	4.97
BD55-5427 (protein) chain 1: QVQLQESGPGLVKPSETLSLTCTVSGGSISSHYWSWSRQPPGKGLEWIGCVNYSGSTNYNPSLKSRVRISVDTSKSQLSLKLSSVTAADTAVYYCARGGATPYSGYDYLDPYYYAMDVWGQGTTVTVSS chain 2: EIVMTQSPATLSVSPGERVTLSCRASQSVGNNLAWYQQKPGQAPRLLIYGASTGATGIPARFSGSGSGTDFTLTISSLQSEDFAVYYCQQYNNWPPYTFGQGTKLEIR	> 10	> 10	> 10	> 10	> 10	> 10	> 10
